## Structure probing of HIV-1 leader RNA with DMS

From the data files of Ye et al. 2022, doi:10.1038/s41594-022-00746-2.

The 5' region of HIV-1 NL4-3 RNA (positions 1-437):
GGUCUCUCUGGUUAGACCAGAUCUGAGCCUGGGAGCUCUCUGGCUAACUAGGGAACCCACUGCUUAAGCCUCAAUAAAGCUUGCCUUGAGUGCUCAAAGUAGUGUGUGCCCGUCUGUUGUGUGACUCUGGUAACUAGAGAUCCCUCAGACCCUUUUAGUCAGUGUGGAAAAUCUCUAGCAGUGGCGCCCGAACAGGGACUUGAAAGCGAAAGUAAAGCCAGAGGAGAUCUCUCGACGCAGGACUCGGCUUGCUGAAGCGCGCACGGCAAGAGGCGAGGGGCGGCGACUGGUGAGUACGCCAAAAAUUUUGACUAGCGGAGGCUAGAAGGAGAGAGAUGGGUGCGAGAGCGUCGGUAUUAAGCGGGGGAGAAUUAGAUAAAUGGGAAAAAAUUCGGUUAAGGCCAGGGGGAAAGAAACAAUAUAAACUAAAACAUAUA

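Randomly mutated transcripts starting with one, two or three G (1G, 2G, 3G), capped or uncapped, were folded for 30 min at 37 °C. High salt was 300 mM KCl and 5 mM MgCl2, low salt 40 mM KCl and 0.1 mM MgCl2; monomer and dimer were parted on a native gel. Each band was probed in the gel with DMS (170 mM, 15 min, 37 °C), with ethanol as control, and sequenced.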

Scale: normalised reactivity, A and C only; low values point to paired or protected bases, higher values to unpaired ones.
One numbering serves 1G, 2G and 3G.
A position is written with its base.

With C93 the assay gave 3G uncapped high-salt monomer 0.03; 2G capped low-salt monomer 0.03.
With C95 the assay gave 3G uncapped high-salt monomer 0.47; 2G capped low-salt monomer 0.60.
With A96 the assay gave 3G uncapped high-salt monomer 0.35; 2G capped low-salt monomer 0.25.
With A97 the assay gave 3G uncapped high-salt monomer 0.72; 2G capped low-salt monomer 0.44.
With A98 the assay gave 3G uncapped high-salt monomer 0.61; 2G capped low-salt monomer 0.36.
With A101 the assay gave 3G uncapped high-salt monomer 0.29; 2G capped low-salt monomer 0.18.
With C109 the assay gave 3G uncapped high-salt monomer 0.08; 2G capped low-salt monomer 0.16.
With C110 the assay gave 3G uncapped high-salt monomer 0.14; 2G capped low-salt monomer 0.16.
With C111 the assay gave 3G uncapped high-salt monomer 0.30; 2G capped low-salt monomer 0.28.
With C114 the assay gave 3G uncapped high-salt monomer 0.19; 2G capped low-salt monomer 0.20.
With A124 the assay gave 3G uncapped high-salt monomer 1.40; 2G capped low-salt monomer 1.12.
With C125 the assay gave 3G uncapped high-salt monomer 0.07; 2G capped low-salt monomer 0.08.
With C127 the assay gave 3G uncapped high-salt monomer 0.03; 2G capped low-salt monomer 0.03.
With A132 the assay gave 3G uncapped high-salt monomer 0.56; 2G capped low-salt monomer 0.48.
With A133 the assay gave 3G uncapped high-salt monomer 1.53; 2G capped low-salt monomer 1.41.
With C134 the assay gave 3G uncapped high-salt monomer 0.16; 2G capped low-salt monomer 0.17.
With A136 the assay gave 3G uncapped high-salt monomer 0.10; 2G capped low-salt monomer 0.12.
With A138 the assay gave 3G uncapped high-salt monomer 0.13; 2G capped low-salt monomer 0.15.
With A140 the assay gave 3G uncapped high-salt monomer 0.40; 2G capped low-salt monomer 0.47.
With C142 the assay gave 3G uncapped high-salt monomer 0.08; 2G capped low-salt monomer 0.08.
With C143 the assay gave 3G uncapped high-salt monomer 0.03; 2G capped low-salt monomer 0.03.
With C144 the assay gave 3G uncapped high-salt monomer 0.03; 2G capped low-salt monomer 0.03.
With C146 the assay gave 3G uncapped high-salt monomer 0.13; 2G capped low-salt monomer 0.13.
With A147 the assay gave 3G uncapped high-salt monomer 0.41; 2G capped low-salt monomer 0.44.
With A149 the assay gave 3G uncapped high-salt monomer 0.07; 2G capped low-salt monomer 0.15.
With C150 the assay gave 3G uncapped high-salt monomer 0.05; 2G capped low-salt monomer 0.09.
With C151 the assay gave 3G uncapped high-salt monomer 0.84; 2G capped low-salt monomer 0.80.
With C152 the assay gave 3G uncapped high-salt monomer 0.85; 2G capped low-salt monomer 0.80.
With A157 the assay gave 3G uncapped high-salt monomer 0.97; 2G capped low-salt monomer 0.85.
With C160 the assay gave 3G uncapped high-salt monomer 0.08; 2G capped low-salt monomer 0.05.
With A161 the assay gave 3G uncapped high-salt monomer 0.51; 2G capped low-salt monomer 0.48.
With A168 the assay gave 3G uncapped high-salt monomer 0.47; 2G capped low-salt monomer 0.46.
With A169 the assay gave 3G uncapped high-salt monomer 0.72; 2G capped low-salt monomer 0.72.
With A170 the assay gave 3G uncapped high-salt monomer 0.57; 2G capped low-salt monomer 0.52.
With A171 the assay gave 3G uncapped high-salt monomer 0.47; 2G capped low-salt monomer 0.42.
With C173 the assay gave 3G uncapped high-salt monomer 0.03; 2G capped low-salt monomer 0.03.
With C175 the assay gave 3G uncapped high-salt monomer 0.03; 2G capped low-salt monomer 0.03.
With A177 the assay gave 3G uncapped high-salt monomer 0.23; 2G capped low-salt monomer 0.25.
With C179 the assay gave 3G uncapped high-salt monomer 0.94; 2G capped low-salt monomer 0.80.
With A180 the assay gave 3G uncapped high-salt monomer 0.69; 2G capped low-salt monomer 0.55.

The last 4 entries again:

position	3G uncapped high-salt monomer	2G capped low-salt monomer
C175	0.03	0.03
A177	0.23	0.25
C179	0.94	0.80
A180	0.69	0.55